A mixed list of measured activities; the numbers were collected in NIAID ChemDB.

Shared fields: whole-cell or culture tests; organism: Aspergillus fumigatus; read-out: Geometric mean MIC

Lines come from different laboratories, so protocols vary.

structure,strain,value
CCC(C)n1ncn(-c2ccc(N3CCN(c4ccc(OC[C@H]5CO[C@](Cn6cncn6)(c6ccc(Cl)cc6Cl)O5)cc4)CC3)cc2)c1=O,35 isolates,0.37 µg/mL
Cc1ccc(CNC(=O)c2ccccc2O)cc1,231,487.5 µM
CCCCCOc1ccc(-c2cc(-c3ccc(C(=O)N[C@H]4C[C@@H](O)[C@@H](O)NC(=O)[C@@H]5[C@@H](O)[C@@H](C)CN5C(=O)[C@H]([C@H](O)CC(N)=O)NC(=O)[C@H]([C@H](O)[C@@H](O)c5ccc(O)c(OS(=O)(=O)O)c5)NC(=O)[C@@H]5C[C@@H](O)CN5C(=O)[C@H]([C@@H](C)O)NC4=O)cc3)no2)cc1,17 isolates,0.008 µg/mL
C[C@@H](c1ncncc1F)[C@](O)(Cn1cncn1)c1ccc(F)cc1F,35 isolates,0.41 µg/mL
C[C@H]1[C@H](O)[C@@H](C)/C=C/C=C/C=C/C=C/C=C/C=C/C=C/[C@H](O[C@@H]2O[C@H](C)[C@@H](O)[C@H](N)[C@@H]2O)C[C@@H]2O[C@](O)(C[C@@H](O)C[C@@H](O)CC[C@H](O)[C@@H](O)C[C@@H](O)CC(=O)O[C@H]1C)C[C@H](O)[C@H]2C(=O)O,17 isolates,0.923 µg/mL
C[C@@H](c1nc(-c2ccc(C#N)cc2)cs1)[C@](O)(Cn1cncn1)c1cc(F)ccc1F,62 isolates,0.578 µg/mL
C[C@@H](c1nc(-c2ccc(C#N)cc2)cs1)[C@](O)(Cn1cncn1)c1ccc(F)cc1F,50 isolates,1.27 µg/mL
C[C@H]1[C@H](O)[C@@H](C)/C=C/C=C/C=C/C=C/C=C/C=C/C=C/[C@H](O[C@@H]2O[C@H](C)[C@@H](O)[C@H](N)[C@@H]2O)C[C@@H]2O[C@](O)(C[C@@H](O)C[C@@H](O)CC[C@H](O)[C@@H](O)C[C@@H](O)CC(=O)O[C@H]1C)C[C@H](O)[C@H]2C(=O)O,6 strains,0.25 µg/mL
C[C@@H](c1ncncc1F)[C@](O)(Cn1cncn1)c1ccc(F)cc1F,94 isolates,0.52 µg/mL
CCC(C)CC(C)CCCCCCCCC(=O)N[C@H]1C[C@@H](O)[C@H](NCCN)NC(=O)[C@@H]2[C@@H](O)CCN2C(=O)[C@H]([C@H](O)CCN)NC(=O)[C@H]([C@H](O)[C@@H](O)c2ccc(O)cc2)NC(=O)[C@@H]2C[C@@H](O)CN2C(=O)[C@H]([C@@H](C)O)NC1=O,3 isolates,219 µg/mL
COc1ccc(CNC(=O)c2ccccc2O)cc1,231,500 µM
C[C@@H](c1ncncc1F)[C@](O)(Cn1cncn1)c1ccc(F)cc1F,28 isolates,0.08 µg/mL
CCC(C)n1ncn(-c2ccc(N3CCN(c4ccc(OC[C@H]5CO[C@](Cn6cncn6)(c6ccc(Cl)cc6Cl)O5)cc4)CC3)cc2)c1=O,17 strains,0.72 µg/mL
C[C@H]1[C@H](O)[C@@H](C)/C=C/C=C/C=C/C=C/C=C/C=C/C=C/[C@H](O[C@@H]2O[C@H](C)[C@@H](O)[C@H](N)[C@@H]2O)C[C@@H]2O[C@](O)(C[C@@H](O)C[C@@H](O)CC[C@H](O)[C@@H](O)C[C@@H](O)CC(=O)O[C@H]1C)C[C@H](O)[C@H]2C(=O)O,62 isolates,0.334 µg/mL

Repeating the final 2 entries:

structure	strain	value
CCC(C)n1ncn(-c2ccc(N3CCN(c4ccc(OC[C@H]5CO[C@](Cn6cncn6)(c6ccc(Cl)cc6Cl)O5)cc4)CC3)cc2)c1=O	17 strains	0.72 µg/mL
C[C@H]1[C@H](O)[C@@H](C)/C=C/C=C/C=C/C=C/C=C/C=C/C=C/[C@H](O[C@@H]2O[C@H](C)[C@@H](O)[C@H](N)[C@@H]2O)C[C@@H]2O[C@](O)(C[C@@H](O)C[C@@H](O)CC[C@H](O)[C@@H](O)C[C@@H](O)CC(=O)O[C@H]1C)C[C@H](O)[C@H]2C(=O)O	62 isolates	0.334 µg/mL